Experimental data: PubChem BioAssay AID504761 (Drosophila RNAi Screening Center, 2011)
The deposit covers about 22,000 reagents; shown is a random part of those that have a named target and a result. Of all reagents, 116 (0.52%) were called active. 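Calls depend on retest data that are not deposited; infection was ranked per plate without normalising between plates; the unit of the infection score is not given.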 Raw values are not corrected between plates. Reagents against one gene are numbered here. A plus sign joins genes that one reagent is predicted to hit. Not stated in the record: the amount of reagent, the time to read-out.

Purpose: 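Genome-wide fly cell screen for genes dengue virus requires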 (primary screen)
Cells: D.Mel-2 cells from Drosophila
Knock-down reagent: long dsRNA against Drosophila genes
Treatment: infection with dengue virus type 2; dose and infection time not stated
Measured: 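Cells stained for dengue envelope protein and imaged; percent of infected cells per well on duplicate plates, ranked by infection, with stained nuclei counted for cell number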
Scale: infection score: higher = more virus-infected cells; cell count: higher = more cells in the well
Rule for the call: 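Very low infection ranking in both replicate wells (chance probability at most 0.065), then a retest showing infection dropped 1.5-fold or more at p below 0.05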
Calls: active = confirmed: knock-down lowers infection; inactive = not picked or not confirmed

| predicted target | reagent | infection score, replicate 1 | infection score, replicate 2 | cell count, replicate 1 | cell count, replicate 2 | outcome |
| --- | --- | --- | --- | --- | --- | --- |
| CG8128 (GeneID 32504) | 1 | 1.93 | 10.9 | 6888 | 6454 | inactive |
| CG12099 (GeneID 38181) | 1 | 2.7 | 2.09 | 5932 | 6077 | inactive |
| l(3)07882 (GeneID 46201) | 1 | 4.35 | 6.63 | 6259 | 6089 | inactive |
| CG9406 (GeneID 37405) | 1 | 25.2 | 9.66 | 5948 | 5639 | inactive |
| unc-119 (GeneID 31664) | 1 | 2.41 | 1.77 | 6809 | 6792 | inactive |
| y (GeneID 30980) | 1 | 6.84 | 4.8 | 6715 | 6871 | inactive |
| CG12531 (GeneID 32986) | 1 | 8.63 | 2.86 | 5839 | 6366 | inactive |
| CG12531 (GeneID 32986) | 2 | 2.71 | 6.36 | 6607 | 6398 | inactive |
| CG10104 (GeneID 36602) | 1 | 8.22 | 21.3 | 6847 | 5729 | inactive |
| Dic1 (GeneID 41640) | 1 | 7 | 7.1 | 5943 | 6116 | inactive |
| CG13625 (GeneID 42931) | 1 | 3.34 | 14.3 | 5635 | 5678 | inactive |
| nmo (GeneID 38890) | 1 | 1.81 | 2.5 | 6251 | 5610 | inactive |
| nmo (GeneID 38890) | 2 | 7.75 | 3.44 | 6335 | 6489 | inactive |
| nmo (GeneID 38890) | 3 | 10.4 | 3.52 | 6313 | 6310 | inactive |
| Naam (GeneID 42348) | 1 | 7.79 | 3.78 | 5573 | 6981 | inactive |
| mRpL35 (GeneID 42588) | 1 | 1.3 | 5.75 | 6156 | 5440 | inactive |
| Nlg1 (GeneID 40913) | 1 | 2.56 | 4.46 | 6373 | 6365 | inactive |
| Nlg1 (GeneID 40913) | 2 | 2.97 | 10.4 | 6664 | 5559 | inactive |
| Nlg1 (GeneID 40913) | 3 | 15.2 | 15.1 | 6407 | 6084 | inactive |
| Nlg1 (GeneID 40913) | 4 | 6.07 | 9.63 | 6329 | 6410 | inactive |
| CG15425 (GeneID 33630) | 1 | 4.65 | 6.9 | 6384 | 6566 | inactive |
| CG15425 (GeneID 33630) | 2 | 2.43 | 2.66 | 6712 | 6952 | inactive |
| CG14676 (GeneID 40729) | 1 | 1.91 | 4.24 | 6713 | 6342 | inactive |
| Tasp1 (GeneID 39757) | 1 | 6.98 | 6.1 | 5949 | 6769 | inactive |
| jagn (GeneID 40714) | 1 | 10.1 | 18.8 | 6348 | 5596 | inactive |
| tor (GeneID 35717) | 1 | 4.02 | 7.19 | 6564 | 2196 | inactive |
| CG4610 (GeneID 37571) | 1 | 8.27 | 8.31 | 5924 | 6053 | inactive |
| CG4610 (GeneID 37571) | 2 | 1.95 | 8.83 | 5911 | 6707 | inactive |
| CG4610 (GeneID 37571) | 3 | 19.8 | 3.69 | 3468 | 623 | inactive |
| CG3473 (GeneID 34849) | 1 | 9.7 | 6.12 | 3618 | 2518 | inactive |
| mle (GeneID 35523) | 1 | 12.5 | 1.96 | 5419 | 6620 | inactive |
| uno (GeneID 35778) | 1 | 2.56 | 13.5 | 5901 | 6570 | inactive |
| uno (GeneID 35778) | 2 | 9.56 | 7.32 | 4205 | 2651 | inactive |
| botv (GeneID 37198) | 1 | 3.96 | 12.5 | 6687 | 6206 | inactive |
| botv (GeneID 37198) | 2 | 19.7 | 20.5 | 3964 | 3552 | inactive |
| CG4592 (GeneID 34317) | 1 | 12.3 | 7.98 | 6288 | 6304 | inactive |
| CG10628 (GeneID 35263) | 1 | 25.5 | 8.11 | 4580 | 6032 | inactive |
| CG13698 (GeneID 40000) | 1 | 2.08 | 19 | 6432 | 5925 | inactive |
| FucTA (GeneID 39653) | 1 | 0.6 | 1.82 | 6282 | 6034 | inactive |
| Sec61gamma (GeneID 32968) | 1 | 11.1 | 5.12 | 5760 | 6464 | inactive |
| Sec61gamma (GeneID 32968) | 2 | 1.72 | 4.3 | 6470 | 6367 | inactive |
| CG31157 (GeneID 318608) | 1 | 12.3 | 9.92 | 6795 | 6545 | inactive |
| CG31157 (GeneID 318608) | 2 | 6.33 | 9.21 | 5494 | 5453 | inactive |
| east (GeneID 46006) | 1 | 9.12 | 4.41 | 5211 | 4625 | inactive |
| east (GeneID 46006) | 2 | 3.11 | 3.53 | 5731 | 5578 | inactive |
| CG14860 (GeneID 41803) | 1 | 15.1 | 22.5 | 5194 | 3081 | inactive |
| CG14860 (GeneID 41803) | 2 | 14.1 | – | 4165 | 379 | inactive |
| Sodq (GeneID 43133) | 1 | 1.47 | – | 6736 | 313 | inactive |
| Sodq (GeneID 43133) | 2 | 32.4 | 22.5 | 4962 | 5274 | inactive |
| CG13405 (GeneID 38016) | 1 | 3.95 | 9.66 | 6151 | 6646 | inactive |
| CG13405 (GeneID 38016) | 2 | 29.6 | 15.2 | 6441 | 3458 | inactive |
| CG42342 (GeneID 7354466) | 1 | 2.83 | 0.44 | 5972 | 5661 | inactive |
| CG42342 (GeneID 7354466) | 2 | 4.74 | 14.7 | 6651 | 6945 | inactive |
| CG42342 (GeneID 7354466) | 3 | 0.97 | 10.6 | 6507 | 6011 | inactive |
| CG42342 (GeneID 7354466) | 4 | 6.14 | 27.2 | 6761 | 4987 | inactive |
| CG42342 (GeneID 7354466) | 5 | 2.08 | 1.44 | 6679 | 6739 | inactive |
| CG42342 (GeneID 7354466) | 6 | 1.52 | 5.83 | 5719 | 6569 | inactive |
| CG42342 (GeneID 7354466) | 7 | 2.78 | 1.61 | 6411 | 7019 | inactive |
| CG42342 (GeneID 7354466) | 8 | 4.57 | 4.57 | 5709 | 5642 | inactive |
| CG42342 (GeneID 7354466) | 9 | 4.17 | 1.07 | 5610 | 5791 | inactive |
| CG42342 (GeneID 7354466) | 10 | 24.9 | 10.9 | 5606 | 6821 | inactive |
| RpL24 (GeneID 34754) | 1 | 1.43 | 3.68 | 2445 | 2203 | inactive |
| RpL24 (GeneID 34754) | 2 | 8.87 | – | 1589 | 328 | inactive |
| CG15208 (GeneID 32022) | 1 | 2.89 | 23 | 6445 | 5994 | inactive |
| sw + Sdic4 + Sdic3 + 2 more | 1 | 1.7 | 0.83 | 5167 | 5297 | inactive |
| sw + Sdic4 + Sdic3 + 2 more | 2 | 19.2 | 0.31 | 3542 | 324 | inactive |
| sp3 (GeneID 42545) | 1 | 1.53 | 0.45 | 5930 | 6471 | inactive |
| l(3)87Df (GeneID 49762) | 1 | 1.05 | 3.58 | 6754 | 6648 | inactive |
| Hacl (GeneID 37285) | 1 | 3.42 | 6.83 | 1082 | 1714 | inactive |
| CG4681 (GeneID 37928) | 1 | 2.73 | 3.55 | 6038 | 6962 | inactive |
| CG4681 (GeneID 37928) | 2 | 7.01 | 2.88 | 5964 | 5696 | inactive |
| CG8728 (GeneID 35748) | 1 | 25.6 | 14.9 | 4528 | 4917 | inactive |
| CG4730 (GeneID 43099) | 1 | 8.85 | 7.55 | 5300 | 1113 | inactive |
| CG4730 (GeneID 43099) | 2 | 4.85 | 5.56 | 6078 | 6046 | inactive |

Look-ups from the list:
Result of CG15208 (GeneID 32022) in “infection score, replicate 1”: 2.89
Value of FucTA (GeneID 39653) under “infection score, replicate 2”: 1.82
Under “cell count, replicate 2”, CG4610 (GeneID 37571) #2 shows 6707
Value of CG9406 (GeneID 37405) in “infection score, replicate 1”: 25.2
For “infection score, replicate 2”, Dic1 (GeneID 41640) reads 7.1
Under “infection score, replicate 1”, CG4610 (GeneID 37571) #3 shows 19.8
